Measured values from several laboratories, pooled; numbers as filed in NIAID ChemDB.

Shared fields: cytotoxicity tests; cell line: HeLa; read-out: CC50

CCn: concentration that lowers growth or viability of the cells by n%. Neighbouring rows are from separate reports. Blank or dashed fields: not listed here. a–b is a range or a potency band.

smiles	method	result
O[C@@H]1CC(n2cnc3cc(Cl)c(Cl)cc32)OC[C@@H]1O	-	400 µg/mL
CN[C@@H]1C[C@H](N)[C@@H](O)[C@H](O[C@@H]2O[C@H](CO)[C@H](O)[C@@H]3OC4(O[C@H]23)O[C@H]([C@@H](N)CO)[C@H](O)[C@H](O)[C@H]4O)[C@H]1O	-	>100 µM
CCS/C(Nc1cccc(C(F)(F)F)c1)=C(/C#N)S(=O)(=O)c1ccccc1	MTT / absorbance	5.43 µM
OCCOC(CCO)n1cnc2cc(Cl)c(Cl)cc21	-	≥200 µg/mL
Cc1cc(O)c2c(c1O)C(=O)c1cccc(O)c1C2=O	-	0.5 µg/mL
CCCS/C(Nc1cccc(C(F)(F)F)c1)=C(/C#N)S(=O)(=O)c1ccccc1	MTT / absorbance	1.47 µM
CC[C@]12CCCN3CCc4c(n(c5ccccc45)[C@@](O)(C(=O)OC)C1)[C@@H]32	-	>200 µg/mL
CN1C(=O)[C@]23CC4=CC=C[C@H](O)[C@H]4N2C(=O)[C@@]1(CO)SSSS3	-	30 µg/mL
O=c1[nH]cnc2[nH]ncc12	-	>200 µg/mL
CC(=O)OC1C=COC=C2C[C@@]34SC(=S)S[C@]5(CC6=COC=CC(OC(C)=O)C6N5C3=O)C(=O)N4C21	-	>100 µg/mL
OC[C@H]1O[C@@H](n2cnc3cc(Cl)c(Cl)cc32)[C@H](O)[C@H]1O	-	40–200 µg/mL
Nc1ncnc2c1ncn2[C@H]1[C@H](O)[C@H](O)[C@]2(CO)O[C@H]12	trypan blue	>500 µg/mL
OCCOC(CO)n1cnc2cc(Cl)c(Cl)cc21	-	≥400 µg/mL
CCOC(=O)OC1C=COC=C2C[C@@]34SS[C@]5(CC6=COC=CC(O)C6N5C3=O)C(=O)N4C21	-	15 µg/mL
CS/C(Nc1cc(C(F)(F)F)cc(C(F)(F)F)c1)=C(/C#N)S(=O)(=O)c1ccccc1	MTT / absorbance	>100 µM
CC(=O)OC1C=COC=C2C[C@@H]3C(=O)N4C5C(=COC=CC5OC(C)=O)C[C@H]4C(=O)N3C21	-	60 µg/mL
CC(=O)N[C@H](C(=O)N[C@H](C(=O)N1CCC[C@H]1C(=O)NC1(C(=O)O)CC1)C(C)C)C1CCCCC1	-	10 µg/mL
Nc1nc2c(ncn2COC2COP(=O)(O)OC2)c(=O)[nH]1	trypan blue	>125 µg/mL
C=CCS/C(Nc1cccc(C(F)(F)F)c1)=C(/C#N)S(=O)(=O)c1ccccc1	MTT / absorbance	3.3 µM
CC(=O)O[C@@H]1OC(=O)[C@](C)(C(C)=O)[C@@H]1C	-	10–20 µg/mL
C[C@@]1(O)[C@@H](CO)O[C@@H](n2ccc(=O)[nH]c2=O)[C@@H]1O	trypan blue	>500 µg/mL
Nc1ncnc2c1ncn2[C@@H]1O[C@H](CO[C@H]2[C@H](O)[C@H](O[C@H]3O[C@@H](CO)[C@@H](O)[C@H](O)[C@@H]3N)[C@@H](O)[C@@H](OS(=O)(=O)O)[C@@H]2OC(=O)[C@@H](N)CO)[C@@H](O)[C@H]1O	-	>200 µg/mL
Nc1ccn([C@@H]2C[C@H](CO)[C@@H](O)[C@H]2O)c(=O)n1	trypan blue	200 µg/mL
CCCCCCCCCCCCCCCC(=O)O	-	50–100 µg/mL
CN1C(=O)[C@]23CC4=CC=C[C@H](O)[C@H]4N2C(=O)[C@@]1(CO)S3	-	0.9 µg/mL

Repeating the first 3 entries:

smiles | method | result
O[C@@H]1CC(n2cnc3cc(Cl)c(Cl)cc32)OC[C@@H]1O | - | 400 µg/mL
CN[C@@H]1C[C@H](N)[C@@H](O)[C@H](O[C@@H]2O[C@H](CO)[C@H](O)[C@@H]3OC4(O[C@H]23)O[C@H]([C@@H](N)CO)[C@H](O)[C@H](O)[C@H]4O)[C@H]1O | - | >100 µM
CCS/C(Nc1cccc(C(F)(F)F)c1)=C(/C#N)S(=O)(=O)c1ccccc1 | MTT / absorbance | 5.43 µM